Data as given in US20010014364A1, “Use of stabilized bromine to improve quality and appearance of leafy vegetables or the like” (priority 1997, published 2001).

System: leaf lettuce
Experiment: Shelf-life sensory rating (odor, browning/dark spots) of leaf lettuce during storage at 4-6° C.
Design: key: PASS: Based on the odor and dark spot sensory scores, lettuce was given a pass or fail rating; FAIL: Lettuce was considered unacceptable if noticeable off-odors were noted and if significant browning or darks sports were present

Measured: Sensory rating (PASS/FAIL) of leaf lettuce

OCl [Bleach, sodium hypochlorite]
FAIL: Day 9, 50 ppm av. Cl2 | Day 10, 50 ppm av. Cl2 | Day 10, 100 ppm av. Cl2 | Day 10, 200 ppm av. Cl2 | Day 11, 50 ppm av. Cl2 | Day 11, 100 ppm av. Cl2 | Day 11, 200 ppm av. Cl2 | Day 12, 50 ppm av. Cl2 | Day 12, 100 ppm av. Cl2 | Day 12, 200 ppm av. Cl2
PASS: Day 0, 50 ppm av. Cl2 | Day 0, 100 ppm av. Cl2 | Day 0, 200 ppm av. Cl2 | Day 1, 50 ppm av. Cl2 | Day 1, 100 ppm av. Cl2 | Day 1, 200 ppm av. Cl2 | Day 2, 50 ppm av. Cl2 | Day 2, 100 ppm av. Cl2 | Day 2, 200 ppm av. Cl2 | Day 4, 50 ppm av. Cl2 | Day 4, 100 ppm av. Cl2 | Day 4, 200 ppm av. Cl2 | Day 5, 50 ppm av. Cl2 | Day 5, 100 ppm av. Cl2 | Day 5, 200 ppm av. Cl2 | Day 6, 50 ppm av. Cl2 | Day 6, 100 ppm av. Cl2 | Day 6, 200 ppm av. Cl2 | Day 7, 50 ppm av. Cl2 | Day 7, 100 ppm av. Cl2 | Day 7, 200 ppm av. Cl2 | Day 8, 50 ppm av. Cl2 | Day 8, 100 ppm av. Cl2 | Day 8, 200 ppm av. Cl2 | Day 9, 100 ppm av. Cl2 | Day 9, 200 ppm av. Cl2
